The text below walks through data of patent publication US20250115620A1, “BRIDGED TRICYCLIC CARBAMOYLPYRIDONE COMPOUNDS AND USES THEREOF” (Gilead Sciences, Inc., priority 2022, published 2025).

In this data set the test system is pLAI reporter virus. It counts as cell-based, HIV. Particulars: EC50 (50% HS)/EC50 (CCM).
`C[C@H]1CC[C@]2(CC(=O)N(C)C2)[C@H]2CN1C(=O)c1c(O)c(=O)c(C(=O)NCc3c(F)cc(F)cc3F)cn12` [Example 61, (3R,3′S,7′S)-12′-hydroxy-1,3′-dimethyl-1′,5,11′-trioxo-N-(2,4,6-trifluorobenzyl)-1′,4′,5′,11′-tetrahydro-3′H,7′H-spiro[pyrrolidine-3,6′-[2,7]methanopyrido[1,2-a][1,4]diazonine]-10′-carboxamide]: the “RLUC 50% HS Shift” value amounted to 2×.

On to `C[C@H]1CC[C@@]2(CC(=O)N(C)C2)[C@H]2CN1C(=O)c1c(O)c(=O)c(C(=O)NCc3c(F)cc(F)cc3F)cn12` [Example 62, (3S,3′S,7′S)-12′-hydroxy-1,3′-dimethyl-1′,5,11′-trioxo-N-(2,4,6-trifluorobenzyl)-1′,4′,5′,11′-tetrahydro-3′H,7′H-spiro[pyrrolidine-3,6′-[2,7]methanopyrido[1,2-a][1,4]diazonine]-10′-carboxamide], for which the “RLUC 50% HS Shift” value stood at 2×.

As to `CCN1C[C@@]2(CC[C@H](C)N3C[C@H]2n2cc(C(=O)NCc4c(F)cc(F)cc4F)c(=O)c(O)c2C3=O)OC1=O` [Example 63, (3′S,5R,7′R)-3-ethyl-12′-hydroxy-3′-methyl-1′,2,11′-trioxo-N-(2,4,6-trifluorobenzyl)-1′,4′,5′,11′-tetrahydro-3′H,7′H-spiro[oxazolidine-5,6′-[2,7]methanopyrido[1,2-a][1,4]diazonine]-10′-carboxamide], the “RLUC 50% HS Shift” value is listed as 1×.

As to `COC1=NO[C@@]2(CC[C@H](C)N3C[C@H]2n2cc(C(=O)NCc4ncc(F)c(Cl)c4F)c(=O)c(O)c2C3=O)C1` [Example 64, (3′S,5S,7′R)—N-((4-chloro-3,5-difluoropyridin-2-yl)methyl)-12′-hydroxy-3-methoxy-3′-methyl-1′,11′-dioxo-1′,4′,5′,11′-tetrahydro-3′H,4H,7′H-spiro[isoxazole-5,6′-[2,7]methanopyrido[1,2-a][1,4]diazonine]-10′-carboxamide], the “RLUC 50% HS Shift” value stood at 500×.

Take `COC1=NO[C@@]2(CC[C@H](C)N3C[C@H]2n2cc(C(=O)NCc4cc(F)c(F)cc4F)c(=O)c(O)c2C3=O)C1` [Example 65, (3′S,5S,7′R)-12′-hydroxy-3-methoxy-3′-methyl-1′,11′-dioxo-N-(2,4,5-trifluorobenzyl)-1′,4′,5′,11′-tetrahydro-3′H,4H,7′H-spiro[isoxazole-5,6′-[2,7]methanopyrido[1,2-a][1,4]diazonine]-10′-carboxamide]: the “RLUC 50% HS Shift” value came out at 178×.

On to `C[C@H]1CC[C@]2(CC(CF)=NO2)[C@H]2CN1C(=O)c1c(O)c(=O)c(C(=O)NCc3ncc(F)c(Cl)c3F)cn12` [Example 66, (3′S,5S,7′R)—N-((4-chloro-3,5-difluoropyridin-2-yl)methyl)-3-(fluoromethyl)-12′-hydroxy-3′-methyl-1′,11′-dioxo-1′,4′,5′,11′-tetrahydro-3′H,4H,7′H-spiro[isoxazole-5,6′-[2,7]methanopyrido[1,2-a][1,4]diazonine]-10′-carboxamide], for which the “RLUC 50% HS Shift” value worked out at 702×.

Turning to `CCC1=NO[C@@]2(CC[C@H](C)N3C[C@H]2n2cc(C(=O)NCc4c(F)cc(F)cc4F)c(=O)c(O)c2C3=O)C1` [Example 67, (3′S,5S,7′R)-3-ethyl-12′-hydroxy-3′-methyl-1′,11′-dioxo-N-(2,4,6-trifluorobenzyl)-1′,4′,5′,11′-tetrahydro-3′H,4H,7′H-spiro[isoxazole-5,6′-[2,7]methanopyrido[1,2-a][1,4]diazonine]-10′-carboxamide], the “RLUC 50% HS Shift” value was found to be 634×.

Turning to `CCCC1=NO[C@@]2(CC[C@H](C)N3C[C@H]2n2cc(C(=O)NCc4c(F)cc(F)cc4F)c(=O)c(O)c2C3=O)C1` [Example 68, (3′S,5S,7′R)-12′-hydroxy-3′-methyl-1′,11′-dioxo-3-propyl-N-(2,4,6-trifluorobenzyl)-1′,4′,5′,11′-tetrahydro-3′H,4H,7′H-spiro[isoxazole-5,6′-[2,7]methanopyrido[1,2-a][1,4]diazonine]-10′-carboxamide], the “RLUC 50% HS Shift” value came to 285×.

For the molecule `C[C@H]1CC[C@]2(CC(CCF)=NO2)[C@H]2CN1C(=O)c1c(O)c(=O)c(C(=O)NCc3c(F)cc(F)cc3F)cn12` [Example 69, (3′S,5S,7′R)-3-(2-fluoroethyl)-12′-hydroxy-3′-methyl-1′,11′-dioxo-N-(2,4,6-trifluorobenzyl)-1′,4′,5′,11′-tetrahydro-3′H,4H,7′H-spiro[isoxazole-5,6′-[2,7]methanopyrido[1,2-a][1,4]diazonine]-10′-carboxamide], the “RLUC 50% HS Shift” value came to 471×.

Turning to `C[C@@H](F)C1=NO[C@@]2(CC[C@H](C)N3C[C@H]2n2cc(C(=O)NCc4c(F)cc(F)cc4F)c(=O)c(O)c2C3=O)C1` [Example 70, (3′S,5S,7′R)-3-((R)-1-fluoroethyl)-12′-hydroxy-3′-methyl-1′,11′-dioxo-N-(2,4,6-trifluorobenzyl)-1′,4′,5′,11′-tetrahydro-3′H,4H,7′H-spiro[isoxazole-5,6′-[2,7]methanopyrido[1,2-a][1,4]diazonine]-10′-carboxamide], the “RLUC 50% HS Shift” value was found to be 441×.

Turning to `C[C@H]1CC[C@]2(CC(C(C)(F)F)=NO2)[C@H]2CN1C(=O)c1c(O)c(=O)c(C(=O)NCc3c(F)cc(F)cc3F)cn12` [Example 71, (3′S,5S,7′R)-3-(1,1-difluoroethyl)-12′-hydroxy-3′-methyl-1′,11′-dioxo-N-(2,4,6-trifluorobenzyl)-1′,4′,5′,11′-tetrahydro-3′H,4H,7′H-spiro[isoxazole-5,6′-[2,7]methanopyrido[1,2-a][1,4]diazonine]-10′-carboxamide], the “RLUC 50% HS Shift” value is given as 412×.

In the case of `C[C@H]1CC[C@]2(CC=NO2)[C@H]2CN1C(=O)c1c(O)c(=O)c(C(=O)NCc3c(F)cc(F)cc3F)cn12` [Example 72, (3′S,5S,7′R)-12′-hydroxy-3′-methyl-1′,11′-dioxo-N-(2,4,6-trifluorobenzyl)-1′,4′,5′,11′-tetrahydro-3′H,4H,7′H-spiro[isoxazole-5,6′-[2,7]methanopyrido[1,2-a][1,4]diazonine]-10′-carboxamide], the “RLUC 50% HS Shift” value came out at 361×.

Consider `C[C@H]1CC[C@]2(CC(C(F)(F)F)=NO2)[C@H]2CN1C(=O)c1c(O)c(=O)c(C(=O)NCc3c(F)cc(F)cc3F)cn12` [Example 73, (3′S,5S,7′R)-12′-hydroxy-3′-methyl-1′,11′-dioxo-N-(2,4,6-trifluorobenzyl)-3-(trifluoromethyl)-1′,4′,5′,11′-tetrahydro-3′H,4H,7′H-spiro[isoxazole-5,6′-[2,7]methanopyrido[1,2-a][1,4]diazonine]-10′-carboxamide], for which the “RLUC 50% HS Shift” value came out at 326×.

Take `C[C@H]1CC[C@]2(CC(N3CCC3)=NO2)[C@H]2CN1C(=O)c1c(O)c(=O)c(C(=O)NCc3c(F)cc(F)cc3F)cn12` [Example 74, (3′S,5S,7′R)-3-(azetidin-1-yl)-12′-hydroxy-3′-methyl-1′,11′-dioxo-N-(2,4,6-trifluorobenzyl)-1′,4′,5′,11′-tetrahydro-3′H,4H,7′H-spiro[isoxazole-5,6′-[2,7]methanopyrido[1,2-a][1,4]diazonine]-10′-carboxamide]: the “RLUC 50% HS Shift” value turned out to be 12×.
